Taken from: PubChem BioAssay AID504761 (Drosophila RNAi Screening Center, 2011)
In all, the deposit lists about 22,000 reagents; this is a random part of those that have a named target and a result. Of all reagents, 116 (0.52%) were called active. 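Calls depend on retest data that are not deposited; infection was ranked per plate without normalising between plates; the unit of the infection score is not given.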 Raw values vary from plate to plate and are shown uncorrected. Further read-outs or replicates are left out here. Not stated in the record: the amount of reagent, the time to read-out.

Assay: 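Insect host genes that dengue virus relies on to spread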 (primary screen)
Cell system: D.Mel-2 cells from Drosophila
Reagents: long dsRNA against Drosophila genes
Challenge: infection with dengue virus type 2; dose and infection time not stated
Measurement: 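Cells stained for dengue envelope protein and imaged; percent of infected cells per well on duplicate plates, ranked by infection, with stained nuclei counted for cell number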
Scale: infection score: higher = more virus-infected cells; cell count: higher = more cells in the well
Call rule: 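Low infection ranks in the two replicates (chance level up to 0.065) followed by a retest with a 1.5-fold or larger significant decrease, p below 0.05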
Meaning of the calls: active = confirmed: knock-down lowers infection; inactive = not picked or not confirmed

After knock-down of CG6287 [DRSC02947] the results were infection score, replicate 1 = 15.5; cell count, replicate 1 = 5901; inactive.
CG6287 [DRSC27507] gave infection score, replicate 1 = 6.87; cell count, replicate 1 = 6433; inactive.
eIF3h (eukaryotic translation initiation factor 3 subunit h) [DRSC01995] gave infection score, replicate 1 = 10.2; cell count, replicate 1 = 5602; inactive.
eIF3h (eukaryotic translation initiation factor 3 subunit h) [DRSC27567] gave infection score, replicate 1 = 27.7; cell count, replicate 1 = 3602; inactive.
For Chchd3 (Coiled-coil-helix-coiled-coil-helix domain containing 3) [DRSC16981], the values are infection score, replicate 1 = 1.41; cell count, replicate 1 = 6183; inactive.
Depletion of Chchd3 (Coiled-coil-helix-coiled-coil-helix domain containing 3) [DRSC26451] came out at: infection score, replicate 1 = 4.63; cell count, replicate 1 = 6409; inactive.
For Spn31A (Serpin 31A) [DRSC02780], the entry reads infection score, replicate 1 = 2.34; cell count, replicate 1 = 7040; inactive.
For Spn31A (Serpin 31A) [DRSC29198] the deposit lists infection score, replicate 1 = 14.6; cell count, replicate 1 = 2452; inactive.
With knock-down of lush [DRSC11364] the results were infection score, replicate 1 = 7.02; cell count, replicate 1 = 6392; inactive.
RpS27A (Ribosomal protein S27A) [DRSC03421] gave infection score, replicate 1 = 19.6; cell count, replicate 1 = 5190; inactive.
RpS27A (Ribosomal protein S27A) [DRSC30047] scored infection score, replicate 1 = 19.1; cell count, replicate 1 = 2282; inactive.
Gdap2 [DRSC06789] showed infection score, replicate 1 = 5.83; cell count, replicate 1 = 6248; inactive.
For Gdap2 [DRSC06790] the deposit lists infection score, replicate 1 = 14.4; cell count, replicate 1 = 6152; inactive.
After knock-down of gammaSnap2 (gamma Soluble NSF attachment protein 2) [DRSC15992] the results were infection score, replicate 1 = 1.44; cell count, replicate 1 = 6736; inactive.
After knock-down of Cks85A (Cyclin-dependent kinase subunit 85A) [DRSC16562], the record shows infection score, replicate 1 = 2.17; cell count, replicate 1 = 5763; inactive.
Depletion of Dnaaf3 (Dynein axonemal assembly factor 3) [DRSC06684] came out at: infection score, replicate 1 = 3.8; cell count, replicate 1 = 6295; inactive.
CG12521 [DRSC09893] scored infection score, replicate 1 = 2.69; cell count, replicate 1 = 6309; inactive.
Knock-down of CG13502 [DRSC04147] came out at: infection score, replicate 1 = 4.08; cell count, replicate 1 = 7173; inactive.
After knock-down of CG13502 [DRSC26374], the record shows infection score, replicate 1 = 11.9; cell count, replicate 1 = 5399; inactive.
robl (roadblock) [DRSC07674] gave infection score, replicate 1 = 12.5; cell count, replicate 1 = 5626; inactive.
Against Ag5r2 (Antigen 5-related 2) [DRSC19328], the entry reads infection score, replicate 1 = 4.17; cell count, replicate 1 = 6469; inactive.

Targets listed so far whose target name starts with S or s:
Spn31A (Serpin 31A) [DRSC02780]: infection score, replicate 1 = 2.34; cell count, replicate 1 = 7040; outcome = inactive
Spn31A (Serpin 31A) [DRSC29198]: infection score, replicate 1 = 14.6; cell count, replicate 1 = 2452; outcome = inactive
